The source of these data is the supplement of paper PMC9931576.

Human monoclonal antibodies against the spike receptor-binding domain (heavy:light variable regions). IC50 against pseudoviruses bearing the spike of naturally observed variants; lower = stronger; >10 µg/ml means not reached at the top dose. No active / inactive call. The stated detection limit is 0.0005 µg/ml; values near or below 0.001 µg/ml lie at the floor of the assay.

The chains are these.
B1: BD56-1883 (protein)
chain 1: QVQLVQSGAEVKKPGSSVKVSCKASEDTFNSYTINWVRQAPGQALEWMGRVIPLLAMTNYAQKFQGRLTITADKSTSTAYMELSSLRSEDTAMYFCARARAPFYASGYNGALNYFDPWGQGTLVTVSS
chain 2: EIVLTQSPGTLSLSPGERATLSCRASQSVTSIYLAWYQQKPGQAPRLLIYGASSRATGIPDRFSGSGSVTDFTLTISRLEPEDFAVYYCQQYHSSPFTFGQGTKLEIK
B2: BD56-1867 (protein)
chain 1: QVQLVESGGGVVQPGRSLRLSCATSGFSFSTYSLHWVRQAPGKGLEWVTFISYSGRNKYYADSVKGRFTISRDNSKNTLYLHMNSLRPDDTAMYYCARPPWGIDSGSYSEAEMYFDYWGQGTLVTVSS
chain 2: QSVLTQPPSVSGAPGQRVTISCTGSSSNIGAGYDVHWYQHLPGTAPKLLIYGNDHRPSGVPDRFSGSRSGTSASLAITGLQAEDEADYYCQSYDSSLSVPSWVFGGGTKLTVL
B3: BD56-1876 (protein)
chain 1: EVQLVESGGGLVQAGGSLRLSCGASGFIVRNNYMNWVRQAPGKGLEWVSSIYSGGTIHSADSVKGRFTISRDDSKNTVYLQMNNLRAADTAHYYCARGGEHYDSAGYPMYQTGAFDVWGQGTMVTVSS
chain 2: QSALTQPPSASGSPGQSVTISCTGTSSDVGGHNYVSWYQQHPGKAPKLIIFEVSKRPSGVPDRFSGSKSGNTASLTVSGLQSEDEADYHCSSYAGSNNFVFGTGTKVTVL
B4: COVOX-75 (protein)
chain 1: QVQLVESGGGVVQPGRSLRLSCAASGFTFNNYPLHWVRQAPGKGPEWVAVISQDGGNKYYVDSVKGRFTISRDNSKNTLYLQMNNLRAEDTALYYCARDVVVVVAARNHYYNGMDVWGQGTTVTVSS
chain 2: DIQLTQSPSSVSASVGDRVTITCRASQGISSWLAWYQQKPGKAPKLLIYAVSSLQSGVPSRFSGSGSGTDFTLTISSLQPEDFATYYCQQAKSFPFTFGPGTKVEIK
B5: BD56-1872 (protein)
chain 1: QVQLVQSGPEVKKPGTSVKVSCKASGFTFSLSSVQWVRQARGQRLEWIGWIAVGNGNTKNAQKFQARVTFTSDMSTSTAYMELSSLRSDDTAVYYCAAPQCNRTRCYDGFNIWGQGTMVTVSS
chain 2: EIVLTQSPGTLSLSPGERATLSCRASQSVSSDYFAWYQQKPGQAPRLLIYAASTRATGIPDRFSGRGSGTDFTLTISRLEPEDFAVYHCQQYGNSPTWTFGQGTKVEIK
B6: BD56-1891 (protein)
chain 1: QVQLVQSGAEVKRPGASVKVSCKASGYAFTGYYIHWVRQAPGQGLEWMGWVDPNSGGINYAQKFRDRVTMTTDTSITTAYMDLSRLTSDDTAVYYCARDTGSYYSDAEYFQHWGQGTLVTVSS
chain 2: DIQMTQSPSPLSASVGDRVTITCRASQPIDNDLNWYQQKPGKAPKLLLYSASNLESGVPSRFSGSGSGADFTLTITSLQPEDFATYYCQQSYTTPPYTFGPGTKLEIK
B7: COVOX-45 (protein)
chain 1: QVQLVESGGGVVQPGRSLRLSCAASGFTFSTYAMHWVRQAPGKGLEWVAVLSYDGSNKYYADSVKGRFTISRDNSKNTLYLQMNSLRAEDTAVYYCAKGGSYAYYYYMDVWGKGTTVTVSS
chain 2: not shown

The target in the first test is SARS-CoV-2 Omicron BA.1 spike pseudovirus. Description: pseudovirus neutralization IC50; higher = weaker neutralization. The method, then:
(§1)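 Single-round VSV luciferase pseudovirus mixed with antibody dilutions for 1 h and put on Huh-7 cells for about a day; IC50 from the dose curve.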
With B1, the “pseudovirus neutralization IC50” value stood at 0.0682 µg/mL.
On the same count and under the same terms, in the case of B2 it was 0.055 µg/mL.
Take B3: the “pseudovirus neutralization IC50” value came out at 0.00072 µg/mL.
Still for that read-out and setting: in the case of B4 it was above 10 µg/mL.
On the same count and under the same terms, in the case of B5 it was 0.0013 µg/mL; in that of B6, 0.936 µg/mL; in that of B7, above 10 µg/mL.

Another test has as its target SARS-CoV-2 Omicron BA.2 spike pseudovirus. Described as above. The method, then:
as §1
As for B1, the “pseudovirus neutralization IC50” value came out at 0.0835 µg/mL.
The same measure, in the same setting: for B2 the value was 6.48 µg/mL; for B3, 0.000535 µg/mL.
The same measure, in the same setting: for B4 the value was above 10 µg/mL.
The same measure, in the same setting: in the case of B5 it was 0.000977 µg/mL.
On to B6, for which the “pseudovirus neutralization IC50” value amounted to 0.0275 µg/mL.
The same measure, in the same setting: for B7 the value was above 10 µg/mL.

The next test concerns the target SARS-CoV-2 Omicron BA.2.75 spike pseudovirus. Described as above. The procedure:
as §1
As for B1, the “pseudovirus neutralization IC50” value stood at 0.00928 µg/mL.
Same read-out and setting: for B2 the value was 2.47 µg/mL; for B3, 0.00864 µg/mL; for B4, above 10 µg/mL.
As to B5, the “pseudovirus neutralization IC50” value was determined as 0.00277 µg/mL.
On the same count and under the same terms, in the case of B6 it was 1.33 µg/mL; in that of B7, above 10 µg/mL.

In the next test the target is SARS-CoV-2 Omicron BA.5 spike pseudovirus. The description is as above. The method, then: as §1
B1: the “pseudovirus neutralization IC50” value is above 10 µg/mL.
The same measure, in the same setting: for B2 the value was 0.188 µg/mL; for B3, 4.19 µg/mL.
Same read-out and setting: in the case of B4 it was above 10 µg/mL; in that of B5, 0.45 µg/mL.
The same measure, in the same setting: for B6 the value was 0.0451 µg/mL; for B7, above 10 µg/mL.

The target of a further test is SARS-CoV-2 Omicron BQ.1.1 spike pseudovirus. The test is described as above. The procedure:
as §1
With B1, the “pseudovirus neutralization IC50” value was above 10 µg/mL.
The same measure, in the same setting: for B2 the value was 0.238 µg/mL; for B3, above 10 µg/mL.
The same measure, in the same setting: for B4 the value was above 10 µg/mL; for B5, above 10 µg/mL; for B6, above 10 µg/mL.
Same read-out and setting: for B7 the value was above 10 µg/mL.

Another test addresses SARS-CoV-2 Omicron XBB spike pseudovirus. The test is described as above. The procedure:
as §1
As for B1, the “pseudovirus neutralization IC50” value is above 10 µg/mL.
Same read-out and setting: for B2 the value was 0.179 µg/mL; for B3, above 10 µg/mL.
On the same count and under the same terms, in the case of B4 it was above 10 µg/mL; in that of B5, above 10 µg/mL.
B6: the “pseudovirus neutralization IC50” value was above 10 µg/mL.
On the same count and under the same terms, for B7 the value was above 10 µg/mL.

For another test, the target named is SARS-CoV-2 early D614G spike pseudovirus. The description is as above. The method, then:
as §1
Take B1: the “pseudovirus neutralization IC50” value was 0.00262 µg/mL.
On to B2, for which the “pseudovirus neutralization IC50” value came to 0.0907 µg/mL.
The same measure, in the same setting: in the case of B3 it was 0.000682 µg/mL; in that of B4, 0.027 µg/mL; in that of B5, 0.00141 µg/mL.
On the same count and under the same terms, for B6 the value was 0.0147 µg/mL; for B7, above 10 µg/mL.
